Construct, isoform or probe ends are uncertain for at least one entry. For part of these data: No signal at the amounts used counts as a negative. For part of these data: At least one verdict rests on a figure or table, not on a statement of the authors.
Assays:
[1] = target: Tn5 transposase (UniProt Q46731); assay: EMSA; conditions: no divalent metal, 2 nM 32P-DNA, 200 nM transposase (400 nM for ME 8/9), H-NS normally 23-849 nM added simultaneously, 30 min 37 C, 5% native PAGE, recombinant protein, label: 5' 32P
[2] = system: H-NS + Tn5 transposase; assay: EMSA; conditions: transpososome itself forms, no divalent metal, 2 nM 32P-DNA, 200 nM transposase (400 nM for ME 8/9), H-NS normally 23-849 nM added simultaneously, 30 min 37 C, 5% native PAGE, recombinant protein, label: 5' 32P
[3] = transpososome assembly, 200 nM transposase

Sequence: CCCTGCAGGTCGACTGTCTCGCATACACATCTTGAGTGAGTGAGCATGCA / ACATGCATGCTCACTCACTCAAGATGTGTATGCGAGACAGTCGACCTGCAGGG [ME 8/9 53-bp transposon end]
- binding result ([1]; transpososome assembly, 400 nM transposase used to obtain roughly equivalent transpososome): binds
- binding result ([2]; H-NS binding to transpososome not detected, transposase 400 nM): no binding

Sequence: CCCTGCAGGTCGACTGACTCTTATACACAAGTTGAGTGAGTGAGCATGCA / ACATGCATGCTCACTCACTCAACTTGTGTATAAGAGTCAGTCGACCTGCAGGG [OE 53-bp transposon end]
- binding result [1, 3]: binds

Sequence: CCCTGCAGGTCGACTGTCTCTTATACACATCTTGAGTGAGTGAGCATGCA / ACATGCATGCTCACTCACTCAAGATGTGTATAAGAGACAGTCGACCTGCAGGG [WT ME 53-bp transposon end]
- binding result [1, 3]: binds

Sequence: CCCTGCAGGTCGACTCTCTCTTATACACATCTTGAGTGAGTGAGCATGCA / ACATGCATGCTCACTCACTCAAGATGTGTATAAGAGACAGTCGACCTGCAGGG [ME 3 53-bp transposon end]
- binding result ([1]; transpososome assembly not impaired, 200 nM transposase): binds
- binding result ([2]; H-NS binding to preformed-type transpososome not detected): no binding

— paper PMC3347997, “Identification of basepairs within Tn5 termini that are critical sfor H-NS binding to the transpososome and regulation of Tn5 transposition”
